Data: ChEMBL document CHEMBL4303087, “Broad anti-coronaviral activity of FDA approved drugs against SARS-CoV-2 in vitro and SARS-CoV in vivo” (2020)

System: SARS-CoV
Experiment: Reduction of weight loss in SARS-CoV (MA15) infected mice after 4 days
Details: strain BALB/c

Structure (SMILES): CN(C)CCCN1c2ccccc2Sc2ccc(Cl)cc21.Cl [CHLORPROMAZINE HYDROCHLORIDE]
- Weight loss (dose 0 ug): 14%
- Weight loss (dose 20 ug): 10%
- Weight loss (dose 100 ug): 5%
- Weight loss (dose 200 ug): 5%
